Results taken from US20210244721A1, “SMALL MOLECULE ENTEROVIRUS INHIBITORS AND USES THEREOF” (priority 2020, published 2021).

How the values were obtained:
[1] = system: EV-D68 US/KY/14-18953 in A172 cells; experiment: CPE assay, EV-D68 US/KY/14-18953 in A172 cells; format: cell-based, Enterovirus D68 (EV-D68)
[2] = system: EV-D68 US/KY/14-18953 in SH-SY5Y cells; experiment: CPE assay, EV-D68 US/KY/14-18953 in SH-SY5Y cells; format: cell-based, Enterovirus D68 (EV-D68)
[3] = system: EV-D68 US/MO/14-18947 in A172 cells; experiment: CPE assay, EV-D68 US/MO/14-18947 in A172 cells; format: cell-based, Enterovirus D68 (EV-D68)
[4] = system: EV-D68 US/MO/14-18947 in SH-SY5Y cells; experiment: CPE assay, EV-D68 US/MO/14-18947 in SH-SY5Y cells; format: cell-based, Enterovirus D68 (EV-D68)
[5] = system: EV-A71 US/AK/16-19516; experiment: CPE assay, EV-A71 US/AK in RD cells; format: cell-based, Enterovirus A71 (EV-A71)

CN(C)CCNC(=O)c1cc(-c2cccs2)nc2ccccc12 [drawing 133]
SI [1]: 3690.0
SI [2]: 1363.0
SI [3]: 738.0
SI [4]: 13630.0

O=C(NCCN1CCCC1)c1cc(-c2cccs2)nc2ccccc12 [drawing 134]
SI [1]: 1308.0
SI [2]: 933.0
SI [3]: 327.0
SI [4]: 4665.0

CC(CN(C)C)NC(=O)c1cc(-c2ccccc2)nc2ccccc12 (stereo not drawn) [drawing 183]
SI50 [5]: 5.6

CN(C)CCNC(=O)c1cc(-c2ccc(F)cc2)nc2ccccc12 [drawing 185]
SI50 [5]: 15.7

NCCNC(=O)c1cc(-c2ccc(F)cc2)nc2ccccc12 [drawing 187]
SI50 [5]: 3.4

CC(CN(C)C)NC(=O)c1cc(-c2cccs2)nc2ccccc12 (stereo not drawn) [drawing 190]
SI50 [5]: 2.3

CN1CCC(NC(=O)c2cc(-c3cccs3)nc3ccccc23)C1 (stereo not drawn) [drawing 191]
SI50 [5]: 4.9

CNCCNC(=O)c1cc(-c2cccs2)nc2ccccc12 [drawing 192]
SI50 [5]: 9.0

CN(C)CCNC(=O)c1cc(-c2ccco2)nc2ccccc12 [drawing 194]
SI50 [5]: 9.5
